# Test results as given in PubChem BioAssay (NCI).
#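 Exposure lasted 48 hours, with cells grown in 96-well plates and compounds tested at five concentrations. GI50 is the concentration that inhibits growth by half. TGI is the concentration that stops growth completely.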
# Key:
# Assay in all cases: NCI-60 cell line screen, 48 h
# 786-0 renal = test system: 786-0 renal
# A498 renal = test system: A498 renal
# A549 NSCLC = test system: A549 NSCLC
# ACHN renal = test system: ACHN renal
# BT-549 breast = test system: BT-549 breast
# CAKI-1 renal = test system: CAKI-1 renal
# CCRF-CEM leukemia = test system: CCRF-CEM leukemia
# COLO 205 colon = test system: COLO 205 colon
# DU-145 prostate = test system: DU-145 prostate
# EKVX NSCLC = test system: EKVX NSCLC
# HCC-2998 colon = test system: HCC-2998 colon
# HCT-116 colon = test system: HCT-116 colon
# HCT-15 colon = test system: HCT-15 colon
# HL-60(TB) leukemia = test system: HL-60(TB) leukemia
# HOP-62 NSCLC = test system: HOP-62 NSCLC
# HOP-92 NSCLC = test system: HOP-92 NSCLC
# HT29 colon = test system: HT29 colon
# IGROV1 ovarian = test system: IGROV1 ovarian
# K-562 leukemia = test system: K-562 leukemia
# KM12 colon = test system: KM12 colon
# LOX IMVI melanoma = test system: LOX IMVI melanoma
# M14 melanoma = test system: M14 melanoma
# MCF7 breast = test system: MCF7 breast
# MDA-MB-231 breast = test system: MDA-MB-231 breast
# MDA-MB-435 = test system: MDA-MB-435
# MDA-N = test system: MDA-N
# MOLT-4 leukemia = test system: MOLT-4 leukemia
# NCI-H226 lung = test system: NCI-H226 lung
# NCI-H23 lung = test system: NCI-H23 lung
# NCI-H460 lung = test system: NCI-H460 lung
# NCI-H522 lung = test system: NCI-H522 lung
# NCI/ADR-RES ovarian = test system: NCI/ADR-RES ovarian
# OVCAR-3 ovarian = test system: OVCAR-3 ovarian
# OVCAR-4 ovarian = test system: OVCAR-4 ovarian
# OVCAR-5 ovarian = test system: OVCAR-5 ovarian
# OVCAR-8 ovarian = test system: OVCAR-8 ovarian
# PC-3 prostate = test system: PC-3 prostate
# RPMI-8226 leukemia = test system: RPMI-8226 leukemia
# RXF 393 renal = test system: RXF 393 renal
# SF-268 CNS = test system: SF-268 CNS
# SF-295 CNS = test system: SF-295 CNS
# SF-539 CNS = test system: SF-539 CNS
# SK-MEL-2 melanoma = test system: SK-MEL-2 melanoma
# SK-MEL-28 melanoma = test system: SK-MEL-28 melanoma
# SK-OV-3 ovarian = test system: SK-OV-3 ovarian
# SNB-75 CNS = test system: SNB-75 CNS
# SR leukemia = test system: SR leukemia
# SW-620 colon = test system: SW-620 colon
# T-47D breast = test system: T-47D breast
# TK-10 renal = test system: TK-10 renal
# U251 CNS = test system: U251 CNS
# UACC-257 melanoma = test system: UACC-257 melanoma
# UACC-62 melanoma = test system: UACC-62 melanoma
# UO-31 renal = test system: UO-31 renal
smiles,measurement,setting,value
CC1=CC2O[C@@H]3C[C@H]4OC(=O)/C=C\C=C\C56OCCC7(OC7C(=O)OCC2(CC1)[C@]4(C)[C@]31CO1)C5OC(O)C6O (stereo partly specified),GI50,786-0 renal,< 1 nM
same,TGI,786-0 renal,2.18 nM
same,GI50,A498 renal,4.92 nM
same,TGI,A498 renal,> 10000 nM
same,GI50,A549 NSCLC,2.96 nM
same,TGI,A549 NSCLC,> 10000 nM
same,GI50,ACHN renal,1.69 nM
same,TGI,ACHN renal,224 nM
same,GI50,BT-549 breast,1.33 nM
same,TGI,BT-549 breast,2.41 nM
same,GI50,CAKI-1 renal,1.88 nM
same,TGI,CAKI-1 renal,557 nM
same,GI50,CCRF-CEM leukemia,2.15 nM
same,GI50,COLO 205 colon,3.3 nM
same,TGI,COLO 205 colon,> 10000 nM
same,GI50,DU-145 prostate,2.65 nM
same,TGI,DU-145 prostate,231 nM
same,GI50,EKVX NSCLC,1.88 nM
same,TGI,EKVX NSCLC,7.07 nM
same,GI50,HCC-2998 colon,1.47 nM
same,TGI,HCC-2998 colon,4.03 nM
same,GI50,HCT-116 colon,2.64 nM
same,TGI,HCT-116 colon,1650 nM
same,GI50,HCT-15 colon,1.56 nM
same,GI50,HL-60(TB) leukemia,2.01 nM
same,GI50,HOP-62 NSCLC,1.76 nM
same,TGI,HOP-62 NSCLC,> 10000 nM
same,GI50,HOP-92 NSCLC,2.18 nM
same,TGI,HOP-92 NSCLC,175 nM
same,GI50,HT29 colon,1.58 nM
same,TGI,HT29 colon,2.86 nM
same,GI50,IGROV1 ovarian,1.73 nM
same,TGI,IGROV1 ovarian,3.39 nM
same,GI50,K-562 leukemia,11.9 nM
same,TGI,K-562 leukemia,> 10000 nM
same,GI50,KM12 colon,1.67 nM
same,TGI,KM12 colon,4.89 nM
same,GI50,LOX IMVI melanoma,1.62 nM
same,GI50,M14 melanoma,1.86 nM
same,TGI,M14 melanoma,4.08 nM
same,GI50,MCF7 breast,1.76 nM
same,TGI,MCF7 breast,> 10000 nM
same,GI50,MDA-MB-231 breast,5.18 nM
same,TGI,MDA-MB-231 breast,> 10000 nM
same,GI50,MDA-MB-435,1.49 nM
same,TGI,MDA-MB-435,3.1 nM
same,GI50,MDA-N,1.66 nM
same,TGI,MDA-N,3.69 nM
same,GI50,MOLT-4 leukemia,1.26 nM
same,GI50,NCI-H226 lung,1.79 nM
same,TGI,NCI-H226 lung,4.33 nM
same,GI50,NCI-H23 lung,2.87 nM
same,TGI,NCI-H23 lung,13 nM
same,GI50,NCI-H460 lung,1.75 nM
same,GI50,NCI-H522 lung,1.18 nM
same,TGI,NCI-H522 lung,6.41 nM
same,GI50,NCI/ADR-RES ovarian,< 1 nM
same,TGI,NCI/ADR-RES ovarian,4.35 nM
same,GI50,OVCAR-3 ovarian,2.06 nM
same,TGI,OVCAR-3 ovarian,666 nM
same,GI50,OVCAR-4 ovarian,1.79 nM
same,TGI,OVCAR-4 ovarian,114 nM
same,GI50,OVCAR-5 ovarian,2.9 nM
same,TGI,OVCAR-5 ovarian,> 10000 nM
same,GI50,OVCAR-8 ovarian,1.74 nM
same,TGI,OVCAR-8 ovarian,6.28 nM
same,GI50,PC-3 prostate,1.93 nM
same,TGI,PC-3 prostate,51.2 nM
same,GI50,RPMI-8226 leukemia,1.93 nM
same,TGI,RPMI-8226 leukemia,> 10000 nM
same,GI50,RXF 393 renal,1.66 nM
same,TGI,RXF 393 renal,4.41 nM
same,GI50,SF-268 CNS,2.72 nM
same,TGI,SF-268 CNS,> 10000 nM
same,GI50,SF-295 CNS,2.32 nM
same,TGI,SF-295 CNS,9.27 nM
same,GI50,SF-539 CNS,1.45 nM
same,TGI,SF-539 CNS,2.65 nM
same,GI50,SK-MEL-2 melanoma,1.83 nM
same,TGI,SK-MEL-2 melanoma,13.2 nM
same,GI50,SK-MEL-28 melanoma,1.82 nM
same,TGI,SK-MEL-28 melanoma,14.7 nM
same,GI50,SK-OV-3 ovarian,3.49 nM
same,TGI,SK-OV-3 ovarian,31.4 nM
same,GI50,SNB-75 CNS,1.69 nM
same,TGI,SNB-75 CNS,2.94 nM
same,GI50,SR leukemia,< 1 nM
same,GI50,SW-620 colon,2.02 nM
same,TGI,SW-620 colon,> 10000 nM
same,GI50,T-47D breast,2.4 nM
same,TGI,T-47D breast,217 nM
same,GI50,TK-10 renal,1.86 nM
same,TGI,TK-10 renal,137 nM
same,GI50,U251 CNS,3.13 nM
same,TGI,U251 CNS,> 10000 nM
same,GI50,UACC-257 melanoma,< 1 nM
same,TGI,UACC-257 melanoma,1.76 nM
same,GI50,UACC-62 melanoma,1.44 nM
same,TGI,UACC-62 melanoma,3.1 nM
same,GI50,UO-31 renal,2.38 nM
same,TGI,UO-31 renal,226 nM
